Source: patent publication US20190100761A1, “COMPOSITIONS AND METHODS FOR ENHANCED GENE EXPRESSION AND VIRAL REPLICATION” (priority 2016, published 2019)
Construct, isoform or probe ends are uncertain for at least one entry. At least one result comes from cells or an extract, where the contact may be indirect. Where a protein sequence is shown, tags need not be part of it.

Tests used:
Test in all cases: binding assay
YTHDF2 (Homo sapiens) = target: T1, YTHDF2 (Homo sapiens) (UniProt Q9Y5A9); conditions: 4SU, PAR-CLIP, protein in cells, protein details: FLAG, stably expressed in 293T
T1 sequence: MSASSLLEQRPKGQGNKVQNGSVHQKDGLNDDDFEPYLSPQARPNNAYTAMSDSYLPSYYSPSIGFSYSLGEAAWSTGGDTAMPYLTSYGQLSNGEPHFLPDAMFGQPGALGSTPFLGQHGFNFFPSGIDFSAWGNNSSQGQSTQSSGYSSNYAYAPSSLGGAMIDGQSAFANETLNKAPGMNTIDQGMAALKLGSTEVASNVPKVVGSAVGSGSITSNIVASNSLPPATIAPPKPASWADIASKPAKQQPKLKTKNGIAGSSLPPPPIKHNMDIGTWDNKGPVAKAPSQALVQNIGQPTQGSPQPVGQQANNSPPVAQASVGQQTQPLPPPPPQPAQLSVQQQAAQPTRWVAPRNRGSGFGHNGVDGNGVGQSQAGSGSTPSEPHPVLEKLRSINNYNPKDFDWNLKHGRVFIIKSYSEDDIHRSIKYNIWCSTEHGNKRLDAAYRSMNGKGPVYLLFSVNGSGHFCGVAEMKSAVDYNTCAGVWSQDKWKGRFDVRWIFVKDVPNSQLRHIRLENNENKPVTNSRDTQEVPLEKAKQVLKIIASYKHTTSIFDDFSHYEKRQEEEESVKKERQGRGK

YTHDF1 (Homo sapiens) = target: T2, YTHDF1 (Homo sapiens) (UniProt Q9BYJ9); conditions: 4SU, PAR-CLIP, protein in cells, protein details: FLAG, stably expressed in 293T
T2 sequence: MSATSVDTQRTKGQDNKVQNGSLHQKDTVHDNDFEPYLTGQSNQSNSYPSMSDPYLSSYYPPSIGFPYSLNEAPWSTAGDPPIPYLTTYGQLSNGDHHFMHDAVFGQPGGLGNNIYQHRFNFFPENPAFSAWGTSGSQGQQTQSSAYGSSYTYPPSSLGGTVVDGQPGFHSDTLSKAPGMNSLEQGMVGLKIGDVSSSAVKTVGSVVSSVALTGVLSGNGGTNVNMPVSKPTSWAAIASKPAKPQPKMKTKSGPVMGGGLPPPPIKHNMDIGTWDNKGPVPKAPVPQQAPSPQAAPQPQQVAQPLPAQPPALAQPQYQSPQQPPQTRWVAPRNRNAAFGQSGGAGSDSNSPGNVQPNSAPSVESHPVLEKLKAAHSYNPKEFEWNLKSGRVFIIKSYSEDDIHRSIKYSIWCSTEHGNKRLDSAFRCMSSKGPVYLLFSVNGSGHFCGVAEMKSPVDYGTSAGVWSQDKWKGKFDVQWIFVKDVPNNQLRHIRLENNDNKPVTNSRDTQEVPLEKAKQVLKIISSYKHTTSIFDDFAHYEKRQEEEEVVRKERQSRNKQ

YTHDF3 (Homo sapiens) = target: T3, YTHDF3 (Homo sapiens) (UniProt Q7Z739); conditions: m6A in RAC motifs; 4SU; PAR-CLIP, infected 293T; four clusters bound; protein in cells; protein details: FLAG, stably expressed in 293T
T3 sequence: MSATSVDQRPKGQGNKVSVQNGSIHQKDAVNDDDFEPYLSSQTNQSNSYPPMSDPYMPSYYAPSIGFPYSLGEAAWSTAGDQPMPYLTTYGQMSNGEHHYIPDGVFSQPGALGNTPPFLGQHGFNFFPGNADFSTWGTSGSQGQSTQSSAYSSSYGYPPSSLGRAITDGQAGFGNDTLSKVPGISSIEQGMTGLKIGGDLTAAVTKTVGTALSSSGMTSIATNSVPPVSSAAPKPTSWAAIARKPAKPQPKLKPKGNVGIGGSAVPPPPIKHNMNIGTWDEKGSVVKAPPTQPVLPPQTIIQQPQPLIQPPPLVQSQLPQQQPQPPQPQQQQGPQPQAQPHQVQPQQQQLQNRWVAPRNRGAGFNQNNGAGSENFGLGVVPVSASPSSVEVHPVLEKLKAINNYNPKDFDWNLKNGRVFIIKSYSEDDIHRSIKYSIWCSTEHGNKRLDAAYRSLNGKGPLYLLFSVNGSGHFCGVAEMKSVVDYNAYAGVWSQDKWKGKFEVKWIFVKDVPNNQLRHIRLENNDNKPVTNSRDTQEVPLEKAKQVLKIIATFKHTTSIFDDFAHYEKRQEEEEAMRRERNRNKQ

[1] = m6A at A3, only the motif is given
[2] = m6A at A3, intense site, absent in NL4-3 and JR-CSF, only the motif is given
[3] = m6A in RAC motifs, infected 293T, four clusters bound

GGACA [HIV-1 JR-CSF novel site JR-CSF1]
binding result (YTHDF2 (Homo sapiens); [1]): binds
binding result (YTHDF1 (Homo sapiens); [1]): binds

GGACC [HIV-1 BaL novel site BaL1]
binding result (YTHDF2 (Homo sapiens); [2]): binds
binding result (YTHDF1 (Homo sapiens); [2]): binds

GGACU [HIV-1 JR-CSF novel site JR-CSF2]
binding result (YTHDF2 (Homo sapiens); [1]): binds
binding result (YTHDF1 (Homo sapiens); [1]): binds

GGAUCCUUAGCACUUAUCUGGGACGAUCUGCGGAGCCUGUGCCUCUUCAGCUACCACCGCUUGAGAGACUUACUCUUGAUUGUAACGAGGAUUGUGGAACUUCUGGGACGCAGGGGGUGGGAAGCCCUCAAAUAUUGGUGGAAUCUCCUACAGUAUUGGAGUCAGGAACUAAAGAAUAGUGCUGUUAACUUGCUCAAUGCCACAGCCAUAGCAGUAGCUGAGGGGACAGAUAGGGUUAUAGAAGUAUUACAAGCAGCUUAUAGAGCUAUUCGCCACAUACCUAGAAGAAUAAGACAGGGCUUGGAAAGGAUUUUGCUAUAAGAUGGGUGGCAAGUGGUCAAAAAGUAGUGUGAUUGGAUGGCCUGCUGUAAGGGAAAGAAUGAGACGAGCUGAGCCAGCAGCAGAUGGGGUGGGAGCAGUAUCUCGAGACCUAGAAAAACAUGGAGCAAUCACAAGUAGCAAUACAGCAGCUAACAAUGCUGCUUGUGCCUGGCUAGAAGCACAAGAGGAGGAAGAGGUGGGUUUUCCAGUCACACCUCAGGUACCUUUAAGACCAAUGACUUACAAGGCAGCUGUAGAUCUUAGCCACUUUUUAAAAGAAAAGGGGGGACUGGAAGGGCUAAUUCACUCCCAAAGAAGACAAGAUAUCCUUGAUCUGUGGAUCUACCACACACAAGGCUACUUCCCUGAUUGGCAGAACUACACACCAGGGCCAGGGGUCAGAUAUCCACUGACCUUUGGAUGGUGCUACAAGCUAGUACCAGUUGAGCCAGAUAAGGUAGAAGAGGCCAAUAAAGGAGAGAACACCAGCUUGUUACACCCUGUGAGCCUGCAUGGAAUGGAUGACCCUGAGAGAGAAGUGUUAGAGUGGAGGUUUGACAGCCGCCUAGCAUUUCAUCACGUGGCCCGAGAGCUGCAUCCGGAGUACUUCAAGAACUGCUGACAUCGAGCUUGCUACAAGGGACUUUCCGCUGGGGACUUUCCAGGGAGGCGUGGCCUGGGCGGGACUGGGGAGUGGCGAGCCCUCAGAUGCUGCAUAUAAGCAGCUGCUUUUUGCCUGUACUGGGUCUCUCUGGUUAGACCAGAUCUGAGCCUGGGAGCUCUCUGGCUAACUAGGGAACCCACUGCUUAAGCCUCAAUAAAGCUUGCCUUGAGUGCUUCAAGUAGUGUGUGCCCGUCUGUUGUGUG [HIV-1 NL4-3 3' region (env/rev, nef, U3/NF-kB, TAR clusters)]
binding result (YTHDF2 (Homo sapiens); [3]): binds
binding result (YTHDF1 (Homo sapiens); [3]): binds
binding result (YTHDF3 (Homo sapiens)): binds
